# Primary screen of a compound library

The values are deposited in ChEMBL (CHEMBL3988442, “University of Dundee, Small-Polar-MMV Screening Library” (2021)).

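Growth of Mycobacterium tuberculosis over 4 days (cholesterol / DPPC medium with tyloxapol); the read-out is not stated. Concentration: 500 µM. The record gives no direction; compounds that gave an IC50 in retests scored well above the rest, so higher reads as more growth inhibition. About 18,000 compounds were tested under these conditions; 5% (about 900) showed 50% or more at least once.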

Values are the deposited “Percent Effect”, in %. The controls that fix the scale are not given in the record; negative values are as filed. The entries come from a sample that favours strong results.

structure,Percent Effect
CC(=O)NCCNC(=O)c1cc(-c2ccco2)on1,-5.536%
CCc1cc(C(=O)NC(CC)[C@H]2C[C@H](O)C2)cc(=O)[nH]1 (some centres undefined),-5.366%
O=C1Nc2ccccc2C1O (centres undefined),4.302%
CN(C)CC(N)c1ccco1 (centres undefined),-7.32%
CCN1CCCC1CNC(=O)c1ccc(C#N)cc1 (centres undefined),5.678%
O=C(CN1CCCC1=O)NCCc1cccnc1,-22.4%
CN(C(=O)CSc1nnc(N)s1)C1CCS(=O)(=O)C1 (centres undefined),-8.718%
N#Cc1ccc(S(=O)(=O)CC(N)=O)c(Cl)c1,-6.83%
COC(=O)N1CCN(c2ccccn2)CC1,52.17%
Nc1cc(=O)[nH]n1-c1ccc(C(F)(F)F)cn1,87.25%
CCN(Cc1ccco1)C(=O)c1csc(NC(C)=O)n1,6.05%
CC(C)N1CCC(CN)C1 (centres undefined),-20.07%
c1cncc(CN2CCC(OC3CCOCC3)CC2)c1,-15.83%
CN1CCN(C(=O)c2cnsn2)c2ccccc21,37.14%
CCCn1ncc(CN2CCN(S(N)(=O)=O)CC2)c1C,12.02%
N[C@H]1CN(C(=O)Cn2cccn2)C[C@@H]1C1CC1,-19.57%
CC(C)Cc1cc(CNC(=O)C2CCOC2)on1 (centres undefined),9.709%
NCc1cccc(-c2ccncc2)c1,17.53%
Cc1nc(C)c(C(=O)NC[C@@H]2C[C@H](F)CN2)s1,9.951%
Cc1cc(NC(=O)CN2CCCC(C)C2)n(C)n1 (centres undefined),-1.491%
CCOCCC(=O)N1CCC2(CC1)C(=O)NCCN2C,2.992%
O=C(NCC[S+]([O-])c1ccccc1)N1CCOCC1 (centres undefined),5.448%
CNC(=O)CSc1ncc(Br)cn1,-14.12%
CCC(C)(C)NCC(=O)Nc1ccc2c(c1)OCCO2,28.31%
CCCN(C)S(=O)(=O)NC(C)c1ccc(OC)c(F)c1 (centres undefined),74.48%
CN1CCN(C(=O)C2CCC(CN)CC2)CC1 (centres undefined),-9.667%
NCc1cnn(-c2cccc(Cl)c2)c1,56.44%
COc1ncccc1CNS(=O)(=O)C1CC1,-24.24%
CCC1c2ccsc2CCN1C(C)=O (centres undefined),23.81%
CCOC(=O)CSc1n[nH]c(-c2cccnc2)n1,17.02%
Cc1cnccc1NCCNC(=O)CCC(F)(F)F,-9.138%
COc1ccnc(C(N)=O)c1,5.38%
CN(C)C(CNC(=O)c1ccncc1)c1ccsc1 (centres undefined),4.467%
CCNC1CCS(=O)(=O)C1 (centres undefined),-8.443%
Cc1c[nH]c(C(=O)NC(c2nccn2C)C2CC2)n1 (centres undefined),7.004%
Cc1ccc(C(=O)N2CCN(c3nccs3)CC2)o1,81.78%
CC(C)(N)CN1CCCOCC1,-1.882%
COc1cccc(F)c1C(C)NC(=O)c1nccn1C (centres undefined),69.69%
COCCn1cc(CNC(=O)NCc2cccs2)cn1,-15.16%
COC(=O)COc1ccc(C(C)=O)cc1Cl,58.51%
COCCn1ccnc1CN1CCCC(NC(C)=O)C1 (centres undefined),2.936%
COc1ncccc1-c1ccc(S(N)(=O)=O)s1,14.15%
CNC(=O)NC(=O)CNc1cc(F)cc(F)c1,-23.63%
CC(CNC(=O)c1cccc(F)c1)N1CCN(C)CC1 (centres undefined),13.02%
Cc1csc(CN)c1,14.81%
N#CCc1ccc(CN)cc1,74.95%
COCc1nn(Cc2csc(C(C)C)n2)c(=O)o1,70.08%
O=C(c1cnccn1)N1CCCC1c1ccsc1 (centres undefined),-2.983%
Cc1cnccc1NCCNC(=O)c1ccccc1Cl,17.69%
CC(CO)(CO)NC(=O)c1ccc(-c2ccccc2)o1,-9.335%
COCCn1cnc2c1c(=O)[nH]c(=O)n2CC(C)C,-23.85%
CC(C)(C)OC(=O)N1CCC(N2CC(O)C2)CC1,8.823%
CC(=O)N(CC(=O)N1CCCCC1)c1ccc(C)cc1,5.658%
CCOC(=O)N1CCC(NC(=O)c2ccsc2)CC1,41.81%
CCCc1ccc(CN2C[C@H](OCC)[C@@H](O)C2)o1,81.54%
Nc1cnccc1N1CCCC1,-5.913%
CN1CCC(C(=O)NCc2ccc(C#N)cc2)CC1=O (centres undefined),-1.247%
NC1CCCN(c2ccccn2)C1 (centres undefined),10.41%
CN1CC(NCc2ccc(C#N)cc2)CC1=O (centres undefined),1.771%
CC1Sc2ccc(C(=O)N(C)C)cc2NC1=O (centres undefined),5.484%
CC(C)NC(=O)Cn1c(S(C)(=O)=O)nc2ccccc21,-13.61%
Cc1nn(C)c(C)c1NC(=O)NCCc1c[nH]cn1,1.001%
CCCS(=O)(=O)N(C)Cc1cccc(OCC)n1,46.82%
Cc1ccnc(CCO)n1,5.075%
CCOC(=O)Nc1ccc(-n2cnnn2)cc1OC,2.527%
COc1ccc(C(=O)N2CCNCC2)cc1OC,-2.193%
Cn1nc(C(=O)NCCc2ccccc2Br)ccc1=O,1.747%
CCS(=O)(=O)CCn1nnc(-c2ccc(Br)cc2)n1,33.36%
CNC(=O)c1cccc(NCc2nc(C)cs2)n1,-20.63%
CCC1=NOC(CNC(=O)c2cc(=O)c(OC)c[nH]2)C1 (centres undefined),12.55%

For reference, 4 entries once more:

| structure | Percent Effect |
|---|---|
| `Cn1nc(C(=O)NCCc2ccccc2Br)ccc1=O` | 1.747% |
| `NC1CCCN(c2ccccn2)C1` (centres undefined) | 10.41% |
| `NCc1cccc(-c2ccncc2)c1` | 17.53% |
| `Cc1csc(CN)c1` | 14.81% |